# PubChem BioAssay AID1259414, Drosophila RNAi Screening Center – 2018
# Test: 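Host factors increasing or decreasing Wolbachia levels in cultured fly cells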 (primary screen)
# System: Drosophila JW18 cells infected with Wolbachia
# Reagent: long dsRNA against Drosophila genes, 0.25 µg dsRNA per well of a 384-well plate
# Duration: 5 days
# Challenge: cells persistently infected with Wolbachia before knock-down; no added drug
# Measured: 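Automated imaging of bacterial rRNA staining divided by host cell count, reported as plate-normalised robust z-score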
# Scale: Wolbachia per cell robust z: higher = more Wolbachia per host cell than the plate typical
# Call rule: 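Active if absolute robust z reaches 1.5 in two or more of three replicates, leaving out multi- or no-target dsRNAs, genes unexpressed in JW18 and A1 wells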
# The deposit covers about 24,000 reagents; below is a random part of those that have a named target and a result. Over the whole deposit, about 1,210 (5%) are marked active. 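Inactive calls also include excluded dsRNAs with several or no targets, genes unexpressed in JW18, and well A1, regardless of score.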 A number with no mark means an inactive call. A plus sign joins genes that one reagent is predicted to hit.
gene,dsRNA,"Wolbachia per cell robust z, rep 1","Wolbachia per cell robust z, rep 2","Wolbachia per cell robust z, rep 3"
CG15269,DRSC01942,0.538,0.692,1.56
CG15269,DRSC24737,-0.158,0.13,-0.329
CG32568,DRSC19913,0.11,1.04,-0.631
CG13067,DRSC09950,-1.26,0.287,-9.8
CG13067,DRSC41514,-0.215,-0.789,-0.512
Hsepi,DRSC04986,0.0191,0.00721,-1.08
Hsepi,DRSC26089,0.354,0.459,1.26
btl,DRSC11331,-1.41,-0.25,-0.46
btl,DRSC36653,-0.822,-0.0836,-0.137
Cdk12,DRSC11836,0.305,0.294,-0.375
Cdk12,DRSC23323,0.758,0.728,-0.161
Cdk12,DRSC29623,0.929,0.34,0.14
Osi10b,DRSC12279,-5.54,0.67,0.368
yellow-e,DRSC12966,-2.87,-2.51,-7.44
yellow-e,DRSC16563,-4.51,-1.4,-0.705
Wnt10,DRSC02797,0.774,0.55,-1.41
Wnt10,DRSC29973,1.25,0.471,1.05
Tim9a,DRSC19753,0.0812 (active),-2.14,-5.26
Gr64f,DRSC08447,0.374,-1.1,0.463
Gr64f,DRSC25964,-0.989,0.0452,0.278
Dyrk3,DRSC21055,0.673,0.44,0.0554
Atg12,DRSC09803,0.288,-0.773,-6.93
Boh1,DRSC14487,-0.0323,-0.564,1.03
otp + asRNA:CR43160,DRSC28164,-1.33,-1.6,0.68
mspo,DRSC07652,0.258,0.597,0.0724
mspo,DRSC28194,0.6,0.413,0.33
Grx5,DRSC19593,-0.333,-0.475,-2.36
Pdp,DRSC17825,-0.75,-1.4,-0.365
Pdp,DRSC26725,0.618,-0.701,1.53
CG3557,DRSC00614,-0.297,0.739,-0.674
CG9328,DRSC03203,0.501,0.0747,-1.53
ocm,DRSC04360,-0.302,0.19,-2.66
ocm,DRSC26248,0.821,-1.58,0.976
CG18266,DRSC02659,-0.766,1.16,0.953

Sorted by “Wolbachia per cell robust z, rep 3” (highest first): some entries from above.
gene,dsRNA,"Wolbachia per cell robust z, rep 1","Wolbachia per cell robust z, rep 2","Wolbachia per cell robust z, rep 3"
Wnt10,DRSC29973,1.25,0.471,1.05
Boh1,DRSC14487,-0.0323,-0.564,1.03
otp + asRNA:CR43160,DRSC28164,-1.33,-1.6,0.68
Gr64f,DRSC08447,0.374,-1.1,0.463
Osi10b,DRSC12279,-5.54,0.67,0.368
Gr64f,DRSC25964,-0.989,0.0452,0.278
mspo,DRSC07652,0.258,0.597,0.0724
Dyrk3,DRSC21055,0.673,0.44,0.0554
yellow-e,DRSC16563,-4.51,-1.4,-0.705
Wnt10,DRSC02797,0.774,0.55,-1.41
Tim9a,DRSC19753,0.0812 (active),-2.14,-5.26
Atg12,DRSC09803,0.288,-0.773,-6.93
yellow-e,DRSC12966,-2.87,-2.51,-7.44

The results go on:
gene,dsRNA,"Wolbachia per cell robust z, rep 1","Wolbachia per cell robust z, rep 2","Wolbachia per cell robust z, rep 3"
Jheh3,DRSC06533,-0.661,1.15,1.39
Jheh3,DRSC29140,0.375,-0.817,1.18
CG30496,DRSC06805,0.307,0.049,-2.57
CR32496 + CG6788,DRSC22043,0.237,-1.68,0.299
Ir21a + asRNA:CR43609,DRSC00528,-2.67,-0.859,0.775
Larp7,DRSC18798,0.4,0.124,-1.03
Larp7,DRSC27687,-1.21,-0.268,1.01
alka,DRSC06136,0.879,0.32,-1.83
CG12728,DRSC17883,1.43,-0.46,0.397
CG12728,DRSC41534,-0.175,0.693,0.982
CG11655,DRSC19413,0.411,0.523,-0.812
mlt,DRSC06120,0.502,0.279,0.163
mlt,DRSC27515,-1.1,0.751,-0.678
CG43980,DRSC11500,-0.447,-0.738,-0.652
CG43980,DRSC11646,-0.378,1.06,0.126
CG43980,DRSC22923,0.399,0.701,0.276
CG43980,DRSC26495,0.676,-0.234,-0.673
CG43980,DRSC28616,0.513,1.51,0.803
CG11350,DRSC08181,-0.674,-0.501,-1.22
CG11350,DRSC25083,-1.75,-0.191,-3.89
CG9287,DRSC03186,-3.05,-3.3,-3.74
CG9287,DRSC22790,-1.57,-1.89,-1.33
loh,DRSC01122,-1.98 (active),-1.36,-8.21
loh,DRSC02943,-0.51,0.974,-1.31
Ugt37D1,DRSC02645,-1.18,-1.49,-0.71
Ugt37D1,DRSC23980,-1.61 (active),-2.85,0.157
TotX,DRSC22206,0.851,0.554,1.3
TotX,DRSC29108,0.469,0.916,0.306
CG12099,DRSC08253,-3.82 (active),0.0375,-2.74
cysu,DRSC15902,0.319,0.818,1.01
cysu,DRSC28838,-0.959,-1.01,-1.02
cysu,DRSC39069,-1.19,1.07,0.588
PheRS-m,DRSC05915,0.247,0.72,-2.16
Usp1,DRSC14155,0.799,-9.57,0.809
comm3,DRSC09993,0.425,-1.83,0.544
comm3,DRSC09994,0.407,0.138,0.0353
comm3,DRSC09995,0.134,0.479,0.392
CG14424,DRSC18472,-1.07,0.0706,-1.47
CG14424,DRSC29124,1.03,0.318,0.865
puml,DRSC06793,0.514,-0.264,-1.82
Ca-alpha1T,DRSC17842,-1.35,-5.75,0.202
Ca-alpha1T,DRSC18103,1.22,0.483,0.542
Ca-alpha1T,DRSC18356,-4.41,-1.02,-4.44
Ca-alpha1T,DRSC18357,-2.04,-0.495,-0.15
Ca-alpha1T,DRSC21430,-0.688,-0.327,0.6
E(z),DRSC11147,-0.363,0.945,1.8
E(z),DRSC29388,0.389,0.371,0.345
CG7763,DRSC07043,-1.19,-4.82,-0.124
CG42673,DRSC08989,-0.513,0.995,-0.518
CG42673,DRSC08991,4.17,4.54,2.48
CG42673,DRSC10177,-2.57,0.566,0.401
CG42673,DRSC10264,0.597,-0.143,0.47
CG42673,DRSC10353,0.346,0.283,0.142
CG42673,DRSC10354,-0.854,-0.879,-0.809
CG42673,DRSC25788,0.0291,-0.451,-0.371
